Human monoclonal antibodies against the spike receptor-binding domain (heavy:light variable regions). IC50 against pseudoviruses bearing the spike of naturally observed variants; lower = stronger; >10 µg/ml means not reached at the top dose. No active / inactive call. The stated detection limit is 0.0005 µg/ml; values near or below 0.001 µg/ml lie at the floor of the assay.
B1: BD55-1239 (protein)
chain 1: QVQLVQSGAEVKKPGSSVKVSCKASGDIYSTYASSWVRQAPGQGLEWMGRIIPVSGTVNYADNFQGRVTITADKSTSTAYMELRSLTSEDTAVYYCARDVARGGYSGYDFFDYYYGMDVWGQGTTVTVSS
chain 2: QSALTQPASVSGSPGQSITISCTGTSSDVGGYNYVSWYQQHPDKAPKLLIYDVNNRPSGVSTRFSGSKSGNTASLTISRLQTDDEADYSCSSYTSSNTWVFGGGTKLTVL
B2: BD55-6391 (protein)
chain 1: QVQLVQSGAEVKKPGSSVKVSCKASGGTFSSYTISWVRQAPGQGLEWMGKIIPILGIASYAQRFQGRVTITADKSTSTAYLELSSLRSEDTAVYYCAREFCSGGSCSYNNWFDPWGQGTLVTVSS
chain 2: QSVLTQPPSVSGAPGQRVTISCTGSNSNIGAGYVVHWYQQLPGTAPKLLIYGNNNRPSGVPDRFSGSKSDTSASLAITGLQAEDEADYYCQSYDSSLTISGVFGGGTKLTVL
B3: BD55-6393 (protein)
chain 1: QAQLVQSGAEVKRPGSSVKVSCQASGGTFSSYGFSWMRQAPGQGLEWIGRIIPILGIANYAPKFQSRVTITAEESTTTAYMELSSLRSEDTAVYYCARSSLDYGDYLLRYNWFDPWGQGTLVTVSS
chain 2: DIQMTQSPSSLSASVGDRVTITCRASQNITSYLSWYQLKPGKAPRLLIYTASSLQSGVPSRFSGSGSGTDFSLTISSLQPEDFATYCCQQSYNFPWTFGRGTKVEI
B4: BD55-6396 (protein)
chain 1: EVQLVESGGVVVQPGGSLRLSCAASGFTFDDYSMHWVRQAPGKGLEWVSIINWDGRSTYYADSVKGRFTISRDNSKKSLYLQMNSLRVEDTGLYYCAKDPHYYGSGSYYRGEYYYYYMDVWGKGTTVTVSS
chain 2: EIVLTQSPATLSLSPGERATLSCRASQSVDNYFAWYQQKPGQAPRLLISDASNRAPGIPARFSGSGSGTDFTLTISGIETEDFAVYYCQRRSTFGPGTRVDIK
B5: BD55-6389 (protein)
chain 1: DVQLLVSGGGLVQPGGSLRLSCAASGFNFSTYAMTWVRQAPGKGLEWVSGITGSRGSTFHADSVKGRFTISRDISKNILYLQMSSLRAEDSAVYFCAKDSLPAVNYFYYYYGMDVWSHGTTVTVSS
chain 2: IALTQSPATLSLSPGDRATLSCRASQSVSSYLAWYQHKPGQAPRLLIYDASRRATGIPARFSGSGSGTDFTLTISSLEPEDFAVYYCQQRSNWPTFGGGTKVEIK
B6: BD55-6399 (protein)
chain 1: QVQLVQSGAEVKKPGASVKVSCKTSGYGFVTYSLHWVRQAPGQGLEWMGRFSPDDGSTSYAQKFQGRVTMSADTSTTTVYLSLKSLRSEDTAFYFCARDPGGFYPNRFDVWGQGTLVTVSS
chain 2: DIQMTQSPSSLSASVGDRVTITCRASQTISHYLNWYQQKPGGAPKLLIYAASTLQGGVPSRFSGSGSGTDFTLTIHSLQPEDFATYYCQQSYTTPPLTFGGGTRVEI

Target: SARS-CoV-2 Omicron BA.1 spike pseudovirus
Test: pseudovirus neutralization IC50; higher = weaker neutralization
Experimental: (§1)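 Single-round VSV luciferase pseudovirus mixed with antibody dilutions for 1 h and put on Huh-7 cells for about a day; IC50 from the dose curve.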

Binder	pseudovirus neutralization IC50
B1	0.146 µg/mL
B2	0.0615 µg/mL
B3	2.44 µg/mL
B4	> 10 µg/mL
B5	> 10 µg/mL
B6	> 10 µg/mL

Target: SARS-CoV-2 Omicron BA.2 spike pseudovirus
Test: as above
Experimental: as §1

Binder	pseudovirus neutralization IC50
B1	> 10 µg/mL
B2	0.031 µg/mL
B3	2.35 µg/mL
B4	> 10 µg/mL
B5	> 10 µg/mL
B6	> 10 µg/mL

Target: SARS-CoV-2 Omicron BA.2.75 spike pseudovirus
Test: as above
Experimental: as §1

Binder	pseudovirus neutralization IC50
B1	> 10 µg/mL
B2	0.0314 µg/mL
B3	> 10 µg/mL
B4	> 10 µg/mL
B5	> 10 µg/mL
B6	> 10 µg/mL

Target: SARS-CoV-2 Omicron BA.5 spike pseudovirus
Test: as above
Experimental: as §1

Binder	pseudovirus neutralization IC50
B1	> 10 µg/mL
B2	> 10 µg/mL
B3	0.35 µg/mL
B4	> 10 µg/mL
B5	> 10 µg/mL
B6	> 10 µg/mL

Target: SARS-CoV-2 Omicron BQ.1.1 spike pseudovirus
Test: as above
Experimental: as §1

Binder	pseudovirus neutralization IC50
B1	> 10 µg/mL
B2	> 10 µg/mL
B3	> 10 µg/mL
B4	> 10 µg/mL
B5	> 10 µg/mL
B6	> 10 µg/mL

Target: SARS-CoV-2 Omicron XBB spike pseudovirus
Test: as above
Experimental: as §1

Binder	pseudovirus neutralization IC50
B1	> 10 µg/mL
B2	0.241 µg/mL
B3	> 10 µg/mL
B4	> 10 µg/mL
B5	> 10 µg/mL
B6	> 10 µg/mL

Target: SARS-CoV-2 early D614G spike pseudovirus
Test: as above
Experimental: as §1

Binder	pseudovirus neutralization IC50
B1	0.0303 µg/mL
B2	0.0425 µg/mL
B3	1.54 µg/mL
B4	> 10 µg/mL
B5	> 10 µg/mL
B6	> 10 µg/mL

From the supplement of paper PMC9931576
